# Laboratory results taken from PubChem BioAssay AID602139 (NMMLSC, 2011).
# Only a part is listed here, and it is no random draw. The source made the active and inactive calls. Rule as the data show it: active = inhibition above about 32%; inactive = the rest.
# Tested on: Botulinum neurotoxin type A light chain protease (Clostridium botulinum A str. ATCC 3502)
# Experiment: BoNT/A light chain protease inhibitors, confirmation, biochemical, flow cytometry, cherry pick 1 (AID 602139)
# Details: multiplex microsphere protease assay, at 10 µM, active compounds read high
smiles,measurement,value
CN1CCC(Nc2ccc(F)c(Cl)c2)CC1,inhibition,inactive: -1.4%
